# Target: EBOV VP40 (Zaire ebolavirus, UniProt Q05128)
# The chains behind the UniProt entries cited, without tags or fusion partners. Where a name states a change or a piece, a line headed by the entry shows the natural chain unless it says otherwise.
# UniProt Q05128: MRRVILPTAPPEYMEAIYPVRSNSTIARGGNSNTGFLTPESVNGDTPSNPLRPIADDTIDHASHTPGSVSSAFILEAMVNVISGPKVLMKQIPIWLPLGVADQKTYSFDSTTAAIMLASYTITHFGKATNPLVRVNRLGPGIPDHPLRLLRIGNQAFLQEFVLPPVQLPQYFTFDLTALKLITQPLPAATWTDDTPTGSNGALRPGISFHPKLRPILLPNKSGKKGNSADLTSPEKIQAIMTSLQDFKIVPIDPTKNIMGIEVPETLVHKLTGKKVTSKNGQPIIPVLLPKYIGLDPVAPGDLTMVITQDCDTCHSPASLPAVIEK
smiles,measurement,setting,value
N#C[C@@]1(c2ccc3c(N)ncnn23)O[C@H](CO)[C@@H](O)[C@H]1O,effect on VP40 perimembrane,,neither
"CCC(CC)COC(=O)[C@H](C)N[P@](=O)(OC[C@H]1O[C@@](C#N)(c2ccc3c(N)ncnn23)[C@H](O)[C@@H]1O)Oc1ccccc1 [Remdesivir, remdesivir, reference compound]",effect on VP40 perimembrane,,neither
"NC(=O)c1cn([C@@H]2O[C@H](CO)[C@@H](O)[C@H]2O)c2ncnc(N)c12 [Sangivamycin, 4-amino-7-(β-D-ribofuranosyl)pyrrolo[2,3-d]pyrimidine-5-carboxamide]",VP40 subcellular localization (fluorescent images),150 and 300 nM,homogenous VP40 subcellular localization

# Source: PMC7824103 (Viruses, 2020)
